A mixed list of measured activities; the numbers were collected in NIAID ChemDB.

All rows: whole-cell or culture tests; species: Mycobacterium tuberculosis

ECn: concentration that inhibits the pathogen or its effect by n%. Lines come from different laboratories, so protocols vary. Inhibition is in % at the dose shown (toxicity tests: loss of growth or viability). MIC50, MIC90 and the like: level of inhibition, or share of isolates inhibited. MIC bound comes from a single tested concentration. An empty or dashed field is not shown.

structure | strain or isolate | method | read-out | dose | value
O[C@H](c1cc(C(F)(F)F)nc2c(C(F)(F)F)cccc12)[C@H]1CCCCN1 | FQR-M10 | - | MIC | - | 10 µg/mL
Cl.NOCCc1ccccc1 | H37Rv | - | MIC | - | 50 µg/mL
C=CCNCCNC[C@]1(C)CCC[C@]2(C)c3ccc(C(C)C)cc3CC[C@@H]12 | - | - | MIC | - | 25 µM
CC(C)c1ccc2c(c1)CC[C@H]1[C@](C)(CNCCNCc3ccco3)CCC[C@]21C | - | - | MIC | - | 50 µM
Nc1ccc(S(=O)(=O)c2cccc(N)c2)cc1 | H37Rv | - | MIC | - | >100 µg/mL
C[C@@H]1CN(c2c(F)c(N)c3c(=O)c(C(=O)O)cn(C4CC4)c3c2F)C[C@H](C)N1 | ATCC 35828 | - | MIC | - | 0.06 µg/mL
O=c1oc2ccc([N+](=O)[O-])cc2c(=O)n1-c1ccc(Cl)cc1 | CNCTC MY331/88 | - | MIC | - | 31 µM
CCOC(=O)Nc1cc2c(c(N)n1)N=C(c1ccc(Cl)cc1)CO2 | H37Rv | - | EC50 | - | >12.5 µg/mL
NC1CCN(c2nc3c(cc2F)c(=O)c(C(=O)O)cn3-c2ccc(F)cc2F)C1 | ATCC35838 | - | MIC | - | >8 µg/mL
CC(CNCCC(c1ccccc1)c1ccccc1)NCC12CC3CC(CC(C3)C1)C2 | - | - | MIC | - | 6.25 µM
CO[C@H]1/C=C/O[C@@]2(C)Oc3c(C)c(O)c4c(=O)c(c5oc6cc(N7CCN(CC(C)C)CC7)cc(=O)c6nc5c4c3=C2O)NC(=O)/C(C)=C\C=C\[C@H](C)[C@H](O)[C@@H](C)[C@@H](O)[C@@H](C)[C@H](OC(C)=O)[C@@H]1C | TN804 | - | MIC | - | 8 µg/mL
Nc1ccc(N=Nc2ccc(O)c(C(=O)O)c2)cc1 | H37Rv | - | MIC | - | >100 µg/mL
c1ccc(CCCCNCCNC2CCc3ccccc32)cc1 | - | - | MIC | - | 50 µM
Nc1c(I)cc(I)cc1I | H37Rv | - | MIC | - | >100 µg/mL
O=c1c2cc(Br)ccc2oc2ccc(Br)cc12 | H37Rv | BACTEC | inhibition | 12.5 µg/mL | 0%
COc1cc(OC)c2c(c1)OC(c1ccc(OC)c(I)c1)CC2=O | H37Rv | - | inhibition | 12.5 µg/mL | 0%
CC(C)=CCNc1ncnc2c1c(C#N)cn2[C@@H]1O[C@H](CO)[C@@H](O)[C@H]1O | H37Rv | resazurin | MIC bound | - | >6.25 µg/mL
COc1ccc2c(=O)n(-c3ccc(C(F)(F)F)cc3)c(=O)oc2c1 | CNCTC MY331/88 | - | MIC | - | 16 µM
NC[C@H]1O[C@H](O[C@H]2[C@H](O)[C@@H](O[C@H]3O[C@H](CO)[C@@H](O)[C@H](N)[C@H]3O)[C@H](N)C[C@@H]2N)[C@H](O)[C@@H](O)[C@@H]1O | A4B (amikacin-resistant) | - | MIC | - | 4 µg/mL
O=C1CC(c2ccccc2Br)Oc2ccccc21 | H37Rv | - | inhibition | 12.5 µg/mL | 23%
NC1CCN(c2c(F)cc3c(=O)c(C(=O)O)cn(C4CC4)c3c2Cl)C1 | MDR | - | MIC50 | - | 1 µg/mL
CC(C)(CO)C(O)C(=O)NCCS(=O)(=O)[O-].[Na+] | H37Rv | - | MIC | - | >100 µg/mL
CCCCCCCCCCCNCCNCCc1ccc(O)cc1 | - | - | MIC | - | 25 µM
CO[C@H]1/C=C/O[C@@]2(C)Oc3c(C)c(O)c4c(=O)c(c5oc6cc(N7CCN(CC(C)C)CC7)cc(=O)c6nc5c4c3=C2O)NC(=O)/C(C)=C\C=C\[C@H](C)[C@H](O)[C@@H](C)[C@@H](O)[C@@H](C)[C@H](OC(C)=O)[C@@H]1C | 2912 (rifampin-sensitive) | - | MIC | - | 0.006 µg/mL
CCN(CC)CCNc1ccc(CO)c2oc3ccc(OS(=O)(=O)c4ccc(C)cc4)cc3c(=O)c12 | EMB-R | - | MIC | - | 6.3 µg/mL
C[C@@H]1[C@H]2C[C@@H](C[C@H]1NCCNCCc1cccc(F)c1)C2(C)C | - | - | MIC | - | 50 µM
CCOC(=O)Nc1cc(Nc2ccccc2)c([N+](=O)[O-])c(N)n1 | H37Rv | - | EC50 | - | <12.5 µg/mL
Cc1ccc(N=Nc2c(O)c3ccccc3[nH]c2=O)c(S(=O)(=O)N(C)C)c1 | H37Rv | BACTEC | MIC bound | - | >12.5 µg/mL
COc1ccc(C(=O)/C=C/c2ccncc2)cc1 | H37Rv | - | inhibition | 12.5 µg/mL | 0%
CCC(C)NCCNCCc1ccc(Cl)cc1Cl | - | - | MIC | - | 25 µM
O=c1oc2ccc(Br)cc2c(=O)n1-c1cccc(F)c1 | CNCTC MY331/88 | - | MIC | - | 8 µM
CCOc1ccc(N2CCOC2=O)cc1 | H37Rv | - | MIC | - | >100 µg/mL
Cl.Cl.NOCc1cnccn1 | H37Rv | BACTEC | MIC | - | ≥12.5 µg/mL
c1ccsc1 | H37Rv | - | MIC | - | 100 µg/mL
O=C1c2ccccc2OC(c2ccccc2)C1(Br)Br | H37Rv | - | EC50 | - | >12.5 µg/mL
C(CNCC12CC3CC(CC(C3)C1)C2)NCC12CC3CC(CC(C3)C1)C2 | - | - | MIC | - | 9.4 µM
O=C(O)Cc1ccc(Cl)cc1 | H37Rv | - | MIC | - | >100 µg/mL
CCOC(=O)Nc1cc(N(C)CC(O)c2ccccc2)c(N)c(N)n1 | H37Rv | - | EC50 | - | >12.5 µg/mL
C[C@H]1COc2c(N3CCN(C)CC3)c(F)cc3c(=O)c(C(=O)O)cn1c23 | DRUG-SUS | - | MIC90 | - | 0.25 µg/mL
CSc1cc(NC(C)=O)c2ncccc2c1N | H37Rv | - | MIC | - | 100 µg/mL
CCOC(=O)c1ccc(-n2c(=O)oc3cc(Cl)ccc3c2=O)cc1 | CNCTC MY331/88 | - | MIC | - | 8 µM
O=C1CC(c2cccc(Cl)c2)Oc2ccccc21 | - | - | EC50 | - | >12.5 µg/mL
c1ccc(C(CCNCCNC2CCc3ccccc32)c2ccccc2)cc1 | - | - | MIC | - | 12.5 µM
Nc1ccc2c(c1)oc1cc(N)ccc12 | H37Rv | - | MIC | - | >100 µg/mL
NCCCCC(C(=O)NC(Cc1ccc(O)cc1)C(=O)NC(CO)C(=O)OCc1ccc([N+](=O)[O-])cc1)N(C(=O)OCc1ccccc1)C(=O)OCc1ccccc1 | H37Rv | BACTEC | MIC bound | - | >12.8 µg/mL
Oc1cc(-[n+]2ccccc2)c(O)cc1-[n+]1ccccc1.[I-] | H37Rv | - | MIC | - | >100 µg/mL
Cc1cccc(CNCCNCCc2ccc(Cl)cc2Cl)c1 | - | - | MIC | - | 12.5 µM
O=C(O)CCCCCCCC(=O)O | H37Rv | - | MIC | - | >100 µg/mL
CCOC(=O)Nc1cc(NC(c2ccccc2)c2ccccc2)c2ncc(-c3ccc(Cl)cc3)nc2n1 | H37Rv | - | EC50 | - | >12.5 µg/mL
O=C(O)c1ccccc1N=Nc1ccc(NCCO)cc1 | H37Rv | - | MIC | - | >100 µg/mL
NC(=O)N/N=C/c1ccc2oc3ccccc3c2c1 | H37Rv | BACTEC | MIC bound | - | >12.5 µg/mL
O=C(Nc1ccccc1)c1ccc([N+](=O)[O-])cc1O | H37Rv | - | MIC | - | >100 µg/mL
CCC(C)(C)NCCNCc1ccc(OC)c(OC)c1 | - | - | MIC | - | 25 µM
COc1ccc(CNCCNCc2ccccc2Sc2ccccc2CO)cc1OC | - | - | MIC | - | 6.25 µM
C[N+](C)=c1ccc2nc3c(cc(Nc4cccc(Nc5cc6oc7cc(=[N+](C)C)ccc-7nc6c6ccccc56)n4)c4ccccc43)oc-2c1 | H37Rv | BACTEC | inhibition | 12.5 µg/mL | 98%
O=C1CC(c2cccc(Br)c2)Oc2ccccc21 | H37Rv | - | EC50 | - | <12.5 µg/mL
O=C(SSC(=O)c1ccco1)c1ccco1 | H37Rv | - | MIC | - | >100 µg/mL
C1=CC(=NN=C(c2ccccc2)c2ccccc2)C=CC1=NN=C(c1ccccc1)c1ccccc1 | H37Rv | BACTEC | MIC bound | - | >12.5 µg/mL
CC(C)N=c1cc2n(-c3ccc(Cl)cc3)c3ccccc3nc-2cc1Nc1ccc(Cl)cc1 | MDR1 | broth dilution / resazurin | MIC | - | 1 µg/mL
OCCCCCNCCN(Cc1ccccc1)Cc1ccccc1 | - | - | MIC | - | 50 µM
CCOc1c(N=Nc2cccc(Cl)c2)c(C)nn1C(=S)SC | H37Rv | BACTEC | MIC bound | - | ≤128 µg/mL
O=C(O)c1ccccc1S | H37Rv | - | MIC | - | >100 µg/mL
CN1CC2(Cc3ccccc3)c3ccccc3NC2(NC(=O)C(=O)NC23Nc4ccccc4C2(Cc2ccccc2)CN(C)C3=O)C1=O | H37Rv | BACTEC | MIC bound | - | >12.8 µg/mL
CC1CCC(NCCNCCCCc2ccccc2)CC1 | - | - | MIC | - | 50 µM
CO[C@H]1C[C@@H]2\C=C(C)/C=C/C=C\C(=O)N[C@H](c3ccccc3)C/C=C/CC[C@H](O)CC(=O)C2=C1O | PZA-R | - | MIC | - | 3.1 µg/mL
CCOC(=O)Nc1cc2[nH]c(-c3cccc(C)c3)nc2c(N(CCc2ccccc2)Cc2ccccc2)n1 | H37Rv | - | EC50 | - | >12.5 µg/mL
c1ccc(C2OC3C4COC(O4)C3O2)cc1 | H37Rv | BACTEC | MIC bound | - | >12.5 µg/mL
Cl.Nc1ccccc1N1CCCCC1 | H37Rv | - | MIC | - | >100 µg/mL
Nc1nc(-c2ccccc2)nc2nc3[nH]c(=O)[nH]c(=O)c3nc12 | H37Rv | BACTEC | MIC bound | - | >12.5 µg/mL
CC(=O)C1C(=O)N(c2ccccc2)N=C1C | H37Rv | - | MIC | - | >100 µg/mL
CCCCCCCCCCCCNC(=O)c1ccc[n+](Cc2ccc(Cl)c(Cl)c2)c1.[Cl-] | H37Rv | BACTEC | MIC | - | ≥12.5 µg/mL
N#CCC(=O)c1cc2ccccc2cc1S(=O)(=O)Nc1ccc2cn[nH]c2c1 | H37Rv | - | MIC | - | 25 µg/mL
COc1cccc2c1C(=O)c1c(O)c3c(c(O)c1C2=O)C[C@@](O)(/C(C)=N/NC(=O)NN)C[C@@H]3OC1CC(N)C(O)C(C)O1.Cl | H37Rv | BACTEC | MIC | - | ≥12.5 µg/mL
COc1ccc(CCNCCNCCc2ccc(Cl)cc2Cl)cc1 | - | - | MIC | - | 50 µM
O=C1N=c2ccc(Br)cc2=C1c1sc(=O)n(Cc2nc3ccccc3[nH]2)c1O | H37Rv | BACTEC | inhibition | 12.5 µg/mL | 0%
CCOC(=O)Nc1cc(NCC(=O)CNc2ccc(C(=O)OCC)cc2)c([N+](=O)[O-])c(N)n1 | H37Rv | - | inhibition | 12.5 µg/mL | 0%
Cc1ccc2c(c1)[n+]([O-])c1c3ccccc3[nH]c1[n+]2[O-] | H37Rv | resazurin | inhibition | 6.25 µg/mL | 71%
CO[C@H]1/C=C/O[C@@]2(C)Oc3c(C)c(O)c4c(=O)c(c5oc6cc(N7CCN(C(C)C)CC7)cc(=O)c6nc5c4c3=C2O)NC(=O)/C(C)=C\C=C\[C@H](C)[C@H](O)[C@@H](C)[C@@H](O)[C@@H](C)[C@H](OC(C)=O)[C@@H]1C | 3064 (rifampin-sensitive) | - | MBC | - | 0.025 µg/mL
Cc1ccc(Nc2ccc(N=Nc3ccc(N=Nc4cccc(S(=O)(=O)O)c4)c4ccccc34)c3cccc(S(=O)(=O)O)c23)cc1 | H37Rv | BACTEC | inhibition | 128 µg/mL | 75%
OCCN1CCNC1=S | H37Rv | - | MIC | - | 50 µg/mL

The first 6 rows once more:

structure | strain or isolate | method | read-out | dose | value
O[C@H](c1cc(C(F)(F)F)nc2c(C(F)(F)F)cccc12)[C@H]1CCCCN1 | FQR-M10 | - | MIC | - | 10 µg/mL
Cl.NOCCc1ccccc1 | H37Rv | - | MIC | - | 50 µg/mL
C=CCNCCNC[C@]1(C)CCC[C@]2(C)c3ccc(C(C)C)cc3CC[C@@H]12 | - | - | MIC | - | 25 µM
CC(C)c1ccc2c(c1)CC[C@H]1[C@](C)(CNCCNCc3ccco3)CCC[C@]21C | - | - | MIC | - | 50 µM
Nc1ccc(S(=O)(=O)c2cccc(N)c2)cc1 | H37Rv | - | MIC | - | >100 µg/mL
C[C@@H]1CN(c2c(F)c(N)c3c(=O)c(C(=O)O)cn(C4CC4)c3c2F)C[C@H](C)N1 | ATCC 35828 | - | MIC | - | 0.06 µg/mL